Compound potency records, mixed from different reports. Data source: NIAID ChemDB in PubChem.

All rows: whole-cell or culture tests; species: Plasmodium falciparum; read-out: EC50

ECn is the concentration giving n% inhibition of infection, replication or growth.

smiles | mutations | method | cells | strain | setting | result
CCCCCCCCCC1CC2CCC3CC(C)NC(=N1)N23 | - | LDH | - | W2 | - | 6.2 µM
CCN(CC)CCCC(C)n1c(N)c(-c2nc3ccccc3n2C)c2nc(C#N)c(C#N)nc21 | - | hypoxanthine uptake / radiometric | Erythrocytes | NF54 | - | 0.34 µM
N=C(N)c1ccc(OCCCCOc2ccc(C(=N)N)cc2N)c(N)c1 | - | hypoxanthine uptake | - | W2 | - | 0.339 µM
COc1ccc(/C=C/C(=O)c2ccc(-n3cnc4ccccc43)cc2)c(OC)c1 | - | - | - | - | - | 1.1 µg/mL
CCCCCC(CCCCCC=O)NC(CCCC[NH3+])C(=O)NC(CCCC[NH3+])C(=O)NCCCCCCCCCCCC(=O)NC(CCCC[NH3+])C(=O)NC(C=O)CCCC[NH3+] | - | hypoxanthine uptake | - | NF54 | - | >10 µM
CC(C)=CCCC1CC2CCCC3CC(C)NC(=N1)N23 | - | LDH | - | W2 | - | 9.45 µM
C[C@H]1CCc2c([nH]c3ccccc23)[C@@]2(N1)C(=O)Nc1ccc(Cl)cc12 | KAE609-resistant (I398F/P990R/D1247Y) | SYBR Green / fluorescence | - | KAE609R-1 | - | 0.328 µM
N=C(N)c1ccc(NCCCCCNc2ccc(C(=N)N)cc2)cc1 | - | hypoxanthine uptake | - | W2 | - | 0.045 µM
C=CCCC1CC2CCCC3CC(C)NC(=N1)N23 | - | LDH | - | W2 | - | 19.27 µM
NC(=O)C(CCC[NH3+])NC(=O)CCCCCCCNC(=O)C(CCCC[NH3+])NC(=O)CCCCCCCNC(=O)C(CCCC[NH3+])NC(=O)CCCCCCCNC(=O)C(N)CCCC[NH3+] | - | hypoxanthine uptake | - | FCR3 | - | 130 µM
CCCCC1CC2CCCC3CC(C)NC(=N1)N23 | - | LDH | - | D6 | - | 3.21 µM
COc1ccc(OC)c(/C=C/C(=O)c2ccc(-n3nnc4ccccc43)cc2)c1 | - | - | - | - | - | 12.73 µg/mL
Cn1nc(C(F)(F)F)c(-c2ccc(Br)cc2)c1NC(=O)Nc1ccc(F)cc1F | Multidrug-resistant | SYBR Green / fluorescence | - | Dd2 (CM1) | - | 0.151 µM
c1cc(C2=NCCN2)ccc1OCCCCOc1ccc(C2=NCCN2)cc1 | - | hypoxanthine uptake | - | W2 | - | 0.54 µM
COc1ccc(/C=C/C(=O)c2ccc(N3CCCC3)cc2)c(OC)c1 | - | - | - | - | - | 2.37 µg/mL
O=C(Nc1cc(C(F)(F)F)ccc1-n1cncn1)C1(c2ccccc2)CC1 | - | - | - | K1 | - | 0.129 µM
CC[C@H]1OC(=O)[C@H](C)[C@@H](OC2C[C@@](C)(OC)[C@@H](O)[C@H](C)O2)[C@H](C)[C@@H](OC2O[C@H](C)C[C@H](N(C)C)[C@H]2O)[C@](C)(O)C[C@@H](C)CN(C)[C@H](C)[C@@H](O)[C@]1(C)O | - | fluorescence | RBC | W2 Mef AziR | 120 h | 0.9 µM
CC(C)CCCC1CC2CCC3CC(C)NC(=N1)N23 | - | LDH | - | W2 | - | 3.53 µM
CCc1ccc(Nc2nc(NCCCCNc3ccnc4cc(Cl)ccc34)nc(N3CCOCC3)n2)cc1 | - | - | - | D6 | - | 0.39 µM
N#Cc1nc2c(-c3nc4ccccc4[nH]3)c(N)n(CCc3ccc(Cl)cc3)c2nc1C#N | - | hypoxanthine uptake / radiometric | Erythrocytes | NF54 | - | 0.22 µM
Cc1cccc(CCC2CC3CCC4CC(C)NC(=N2)N34)c1 | - | LDH | - | W2 | - | 8.05 µM
N#Cc1nc2c(-c3nc4ccccc4[nH]3)c(N)n(CCCC(F)(F)F)c2nc1C#N | - | hypoxanthine uptake / radiometric | Erythrocytes | NF54 | - | 0.74 µM
Clc1ccc2c(NCCCCNc3nc(Nc4ccccc4)nc(N4CCOCC4)n3)ccnc2c1 | - | - | - | W2 | - | 0.25 µM
c1ccc(CC[C@@H]2C[C@@H]3CCC[C@@H]4C[C@H](CCc5ccccc5)NC(=N2)N43)cc1 | - | LDH | - | W2 | - | 8.26 µM
CC[C@H]1OC(=O)[C@H](C)[C@@H](OC2C[C@@](C)(OC)[C@@H](O)[C@H](C)O2)[C@H](C)[C@@H](OC2O[C@H](C)C[C@H](N(C)C)[C@H]2O)[C@](C)(OC2C[C@H](N)[C@H](O)[C@H](C)O2)C[C@@H](C)C(=O)[C@H](C)[C@@H](O)[C@]1(C)O | - | fluorescence | RBC | W2 Mef | 120 h | 11.3 µM
COc1ccc(/C=C/C(=O)c2ccc(-n3nnc4ccccc43)cc2)c(OC)c1 | - | - | - | - | - | 7.22 µg/mL
COc1cc(C2=NCCN2)ccc1OCCCCOc1ccc(C2=NCCN2)cc1OC | - | hypoxanthine uptake | - | D6 | - | 0.385 µM
CCCCCCCCCCCC(=O)NC(CCCC[NH3+])C(=O)NCCCCCCCC(=O)NC(CCCC[NH3+])C(=O)NC(CCCC[NH3+])C(=O)NCCCCCCCC(=O)NC(CCCC[NH3+])C(N)=O | - | hypoxanthine uptake | - | NF54 | - | >10 µM
CC(C)=CCC[C@@H]1C[C@@H]2CCC[C@@H]3C[C@H](CCC=C(C)C)NC(=N1)N32 | - | LDH | - | D6 | - | 1.69 µM
COc1ccc(/C=C/C(=O)c2ccc(-n3cncn3)cc2)cc1OC | - | - | - | - | - | 5.85 µg/mL
O=C(Nc1cc(C(F)(F)F)ccc1-n1cncn1)C1(c2cccc(C(F)(F)F)c2)CC1 | - | - | - | FCR3 | - | 0.007 µM
N#Cc1nc2c(-c3nc4ccccc4[nH]3)c(N)n(CCc3cccc(Cl)c3)c2nc1C#N | - | hypoxanthine uptake / radiometric | Erythrocytes | NF54 | - | 0.19 µM
CCc1ccc(Nc2nc(NCCNc3ccnc4cc(Cl)ccc34)nc(N3CCOCC3)n2)cc1 | - | - | - | W2 | - | 0.67 µM
C[C@H]1Cc2c([nH]c3cc(Cl)c(F)cc23)[C@@]2(N1)C(=O)Nc1ccc(Cl)cc12 | KAE609-resistant (D1247Y) | SYBR Green / fluorescence | - | KAE609R-3 | - | 0.00412 µM
COc1ccc(Nc2nc(NCCNc3ccnc4cc(Cl)ccc34)nc(N3CCOCC3)n2)cc1 | - | - | - | W2 | - | 0.59 µM
CCCCCCCCCCCC(=O)NC(CCCC[NH3+])C(=O)NCCCCCCCC(=O)NC(CCCC[NH3+])C(=O)NCCCCCCCC(=O)NC(CCCC[NH3+])C(=O)NCCCCCCCC(=O)NC(CCCC[NH3+])C(N)=O | - | hypoxanthine uptake | - | FCR3 | - | 1.2 µM

3 of the rows above, restated:

CCc1ccc(Nc2nc(NCCNc3ccnc4cc(Cl)ccc34)nc(N3CCOCC3)n2)cc1 ; strain: W2 ; result: 0.67 µM
CCCCC1CC2CCCC3CC(C)NC(=N1)N23 ; method: LDH ; strain: D6 ; result: 3.21 µM
COc1ccc(Nc2nc(NCCNc3ccnc4cc(Cl)ccc34)nc(N3CCOCC3)n2)cc1 ; strain: W2 ; result: 0.59 µM

Lines come from different laboratories, so protocols vary. An empty or dashed field is not shown.